These results are taken from US20240083981A1, “TREATMENT OF HERPES SIMPLEX VIRUS INFECTION” (priority 2022, published 2024).

Assay [1] deals with glycoprotein D (gD) of herpes simplex virus-2 (HSV-2), on infectious virus (herpes simplex virus-2 (HSV-2)) (UniProt P03172). The assay can be described thus: cell-based or functional assay.
Assay [2] has as its target glycoprotein D (gD) of herpes simplex virus-1 (HSV-1), on infectious virus (herpes simplex virus-1 (HSV-1)) (UniProt Q69091). Description: cell-based or functional assay.

UB-621 (anti-HSV-gD mAb) (antibody) returned an IC50, plaque assay, HSV-2 333 TKnull in Vero cells in assay [1] of 0.0281 µM. Further, the IC50, plaque assay, HSV-1 RE TKnull in Vero cells in assay [2] was found to be 0.0113 µM.
